Results on one compound are retold here after patent US20070033061A1 (priority 2005, published 2007).

The test system of experiment [1] is B. anthracis Sterne. Particulars: B. anthracis Sterne wild type.
The subject of experiment [2] is E. coli lexA(S119A) strain.

Converted amounts (≈) assume the structure as drawn.

In turn, `O=C(O)c1cn(C2CC2)c2cc(N3CCNCC3)c(F)cc2c1=O` [ciprofloxacin] registered an MIC wt in experiment [1] of 0.05 mg/L (≈ 0.151 µM). Besides, the “reduction in the frequency of developing resistance to ciprofloxacin” value in experiment [2] (LexA(Ind-) strain, amount depending on the antibiotic concentration) is on record as “more than two orders of magnitude”. Besides, the “reduction of the frequency with which bacteria evolved resistance to ciprofloxacin” value in experiment [2] (lexA(S119A) strain, 35 ng/mL ciprofloxacin, data not shown) is given as “approximately 100 fold”.
